Anti-infective test results gathered from many reports (values: NIAID ChemDB through PubChem).

Common to all: toxicity to cultured cells; cell line: MT-4; read-out: CC50

CCn: concentration that lowers growth or viability of the cells by n%. Neighbouring rows are from separate reports.

compound,result
CC(C)Nc1cccnc1N1CCN(C(=O)c2ccc(-c3ccc(NS(C)(=O)=O)cc3)[nH]2)CC1,29 µM
Cc1nc(CCCCCOCc2ccccc2)n2nc(Cl)ccc12,290 µM
CO[C@@H]1[C@@H](OC(N)=O)[C@@H](O)[C@H](Oc2ccc3c(O)c(NC(=O)c4ccc(O)c(CC=C(C)C)c4)c(=O)oc3c2C)OC1(C)C,109 µg/mL
Cc1nc(CCCCCCC(=O)c2ccccc2)n2nc(-n3nccn3)ccc12,260 µM
CC1(C)C=Cc2c(cc(O)c3c(=O)c4c(oc23)-c2ccc(O)cc2OC(C(C)(C)OO)C4)O1,11 µg/mL
CCOC(=O)CN1C(=O)c2cccn2S(=O)(=O)c2ccccc21,>300 µM
CC(C)=CCc1c(O)ccc(-c2coc3cc(O)cc(O)c3c2=O)c1O,21 µg/mL
Cc1cc(C)nc(NS(=O)(=O)c2ccc(N=C3C(=O)Nc4ccccc43)cc2)n1,>125 µg/mL
CCN1c2ncccc2N(C)C(=S)c2sc3cccnc3c21,40 µM
Cc1nc(CCCCCCC(=O)c2ccccc2)n2nc(-n3cncn3)ccc12,26 µM
N#Cc1cn([C@H]2CC[C@@H](CO)O2)c2ncnc(N)c12,54 µM
CC(C)c1c(COC(N)=O)cn(Cc2ccncc2)c1Sc1ccccc1,127 µM
CCCCNP(=O)(OC[C@@H]1O[C@H](n2cc(C)c(=O)[nH]c2=O)C[C@H]1N=[N+]=[N-])OC[C@H]1O[C@@H](n2cc(C)c(=O)[nH]c2=O)C[C@@H]1N=[N+]=[N-],>100 µM
CCC(C)Oc1nc(Cc2ccccc2)c(C)c(=O)[nH]1,180 µM
CC(C)(C)[Si](C)(C)OC[C@H]1O[C@@H](n2ccc(=O)[nH]c2=O)[C@H](O[Si](C)(C)C(C)(C)C)C12OS(=O)(=O)C=C2N,14.4 µM
CC(C)Nc1cccnc1N1CCN(C(=O)c2ccc(-c3cccc(NS(C)(=O)=O)c3)[nH]2)CC1,21 µM
CC(=O)N1C(=O)C(=Nc2ccc(S(=O)(=O)Nc3nc(C)cc(C)n3)cc2)c2ccccc21,>125 µg/mL
CCOC(=O)c1cn(Cc2ccncc2)c(Sc2cc(Cl)cc(Cl)c2)c1C(C)C,41 µM
O=C1c2ccccc2C(=O)N1CCCN1c2ccccc2Sc2ccc(Cl)cc21,500 µg/mL
COc1nc(Cc2ccccc2)c(C)c(=O)[nH]1,517 µM
Cc1nc(CCCCCCC(=O)c2ccccc2)n2nc(-n3ccnc3C)ccc12,260 µM
Cc1ccnc2c1NC(=O)c1cccnc1N2C1CC1,>100 µM
CC(C)Nc1cccnc1N1CCN(C(=O)c2c[nH]c(-c3cccc(N)c3)c2)CC1,21 µM
CO[C@@H]1[C@@H](OC(=O)c2ccc(C)[nH]2)[C@@H](O)C(Oc2ccc3c(O)c(NC(=O)c4c[nH]c(C(=O)Nc5c(O)c6ccc(OC7OC(C)(C)[C@H](OC)[C@@H](OC(=O)c8ccc(C)[nH]8)[C@H]7O)c(C)c6oc5=O)c4C)c(=O)oc3c2C)OC1(C)C,3.3 µg/mL
O=c1[nH]cnc2c1ncn2[C@H]1CC[C@@H](CO)O1,60 µM
CC(C)[C@H](NC(=O)N(C)Cc1ccccn1)C(=O)N[C@@H](Cc1ccccc1)C[C@H](O)[C@H](Cc1ccccc1)NC(=O)[C@@H](NC(=O)N(C)Cc1ccccn1)C(C)C,>0.16 µM
CC(C)=CCN1C(=O)c2cccn2S(=O)(=O)c2ccccc21,41 µM
CC(C)c1c(CO)cn(Cc2ccncc2)c1Sc1ccccc1,29 µM
C/C=C/CN1C(=O)c2cccn2S(=O)(=O)c2ccccc21,52 µM
CCCOc1nc(Cc2ccccc2)c(CC)c(=O)[nH]1,216 µM
Cc1cn([C@H]2C[C@H](N=[N+]=[N-])[C@@H](COP(=O)(OCCSC(=O)C(C)(C)C)Oc3ccc(C[C@@H](N)C(=O)O)cc3)O2)c(=O)[nH]c1=O,>100 µM
O=C(O)c1cn2c3c(c(N4CCN(c5ccccn5)CC4)c(F)cc3c1=O)OCC2CF,>25 µg/mL
c1ccc2c(c1)Nc1ccccc1S2,264 µg/mL
O=c1[nH]c(=O)n([C@H]2C[C@H](F)[C@@H](CO)O2)cc1F,50 µM
Cc1cn([C@H]2C[C@H](N=[N+]=[N-])[C@@H](COP(=O)(O)O)O2)c(=O)[nH]c1=O,>10 µM
Nc1ncnc2c1ncn2CCOCP(=O)(O)O,144 µM
Cc1cn([C@H]2C[C@H](N=[N+]=[N-])[C@@H](CO)O2)c(=O)[nH]c1=O,>65.9 µg/mL
CC(=O)NCCCN1c2ccccc2Sc2ccc(Cl)cc21,402.5 µg/mL
Cc1cn([C@H]2C[C@H](F)[C@@H](CO)O2)c(=O)[nH]c1=O,240 µM
O=C(O[C@@H]1Cc2c(O)cc(O)cc2O[C@@H]1c1cc(O)c(O)c(O)c1)c1cc(O)c(O)c(O)c1,31 µg/mL
Cc1nc(CCCCCCC(=O)c2ccccc2)n2nc(-n3ccnn3)ccc12,26 µM
Cc1cn([C@H]2C[C@H](N=[N+]=[N-])[C@@H](CO)O2)c(=O)[nH]c1=O,3.7 µM
NC(=O)c1cn([C@H]2C=C[C@@H](CO)O2)c2ncnc(N)c12,625 µM
Cc1cn([C@@H]2O[C@H](CO)C3(OS(=O)(=O)C=C3N)[C@H]2O)c(=O)[nH]c1=O,>300 µM
C=C[C@@]1(CO)CO[C@@H](n2cc(C)c(=O)[nH]c2=O)C1,>100 µg/mL
CCN1c2ccccc2Sc2ccccc21,>500 µg/mL
CC(C)[C@H](NC(=O)N(C)Cc1ccccn1)C(=O)N[C@@H](Cc1ccccc1)[C@H](O)[C@@H](O)[C@H](Cc1ccccc1)NC(=O)[C@@H](NC(=O)N(C)Cc1ccccn1)C(C)C,>0.17 µM
O=C1Nc2ccccc2Cn2ccnc21,>300 µM
CC1(C)C=Cc2c(ccc(-c3coc4cc(O)ccc4c3=O)c2O)O1,40 µg/mL
CCN1C(=O)c2cccn2S(=O)(=O)c2ccccc21,168 µM
CCOC(=O)[C@H](C)NP(=O)(OC[C@@H]1O[C@H](n2cc(C)c(=O)[nH]c2=O)C[C@H]1N=[N+]=[N-])OC[C@H]1O[C@@H](n2cc(C)c(=O)[nH]c2=O)C[C@@H]1N=[N+]=[N-],>100 µM
CN1c2ccccc2N2C(=O)CN(CCN3CCCCC3)C(=O)C2c2cccn21,>300 µM
NC(=O)c1cn([C@H]2CC[C@@H](CO)O2)c2ncnc(N)c12,242 µM
CC(C)Nc1cccnc1N1CCN(C(=O)c2c[nH]c(-c3ccccc3N)c2)CC1,98 µM
CC(C)=CCc1c(O)ccc([C@@H]2COc3c(ccc4c3C=CC(C)(C)O4)C2)c1O,>100 µg/mL
CCCCOc1nc(Cc2ccccc2)c(CC)c(=O)[nH]1,185 µM
CC(C)Nc1cccnc1N1CCN(C(=O)c2ccc(-c3ccccc3NS(C)(=O)=O)[nH]2)CC1,>200 µM
CCOC(=O)c1c[nH]c(Sc2cc(Cl)cc(Cl)c2)c1C(C)C,>200 µM
Cc1cn([C@H]2C[C@H](N=[N+]=[N-])[C@@H](CO)O2)c(=O)[nH]c1=O,920 µM

8 of the rows above, restated:

{"compound": "Cc1nc(CCCCCOCc2ccccc2)n2nc(Cl)ccc12", "result": "290 µM"}
{"compound": "CC(C)=CCc1c(O)ccc([C@@H]2COc3c(ccc4c3C=CC(C)(C)O4)C2)c1O", "result": ">100 µg/mL"}
{"compound": "Cc1cn([C@H]2C[C@H](N=[N+]=[N-])[C@@H](CO)O2)c(=O)[nH]c1=O", "result": "920 µM"}
{"compound": "N#Cc1cn([C@H]2CC[C@@H](CO)O2)c2ncnc(N)c12", "result": "54 µM"}
{"compound": "Cc1cn([C@H]2C[C@H](N=[N+]=[N-])[C@@H](CO)O2)c(=O)[nH]c1=O", "result": ">65.9 µg/mL"}
{"compound": "CCC(C)Oc1nc(Cc2ccccc2)c(C)c(=O)[nH]1", "result": "180 µM"}
{"compound": "Cc1cn([C@H]2C[C@H](F)[C@@H](CO)O2)c(=O)[nH]c1=O", "result": "240 µM"}
{"compound": "Cc1nc(CCCCCCC(=O)c2ccccc2)n2nc(-n3cncn3)ccc12", "result": "26 µM"}